The source of these data is article PMC8303886, “Polyphenylglyoxamide-Based Amphiphilic Small Molecular Peptidomimetics as Antibacterial Agents with Anti-Biofilm Activity” (International Journal of Molecular Sciences, 2021).

Where “and” joins values, the source holds several entries; their conditions need not be identical. Equal values may be shown once.

For the first data set, the system named is MRC-5 normal human lung fibroblasts. As to the kind of experiment: MTT cytotoxicity assay. In kind it is cell-based. To be noted: IC50 against MRC-5 cells divided by MIC against E. coli. On the procedure: The IC50 values of the tested peptidomimetics were determined from a dose-response curve. […] The therapeutic indices for each tested peptidomimetic against Gram-positive S. aureus and Gram-negative E. coli were calculated by dividing the IC50 value against human cells by the corresponding MIC value (Table 2).
The toxicity of the peptidomimetics against normal human lung fibroblasts MRC-5 cells was measured, using an MTT (3-(4,5-dimethylthiazol-2-yl)-2,5-diphenyltetrazolium bromide) (Sigma Aldrich, St. Louis, MO, USA) colorimetric assay. The cells were cultured in minimal essential medium (MEM, Invitrogen) containing 10% foetal bovine serum (FBS). The cells were maintained at 37 °C in 5% CO2 as an adherent monolayer and was passaged upon reaching confluence by standard cell culture techniques. MRC-5 cells were seeded at 5000 cells/well in 96-well plates to ensure full confluence (quiescence) and left overnight to adhere to the plate wells. The adherent cells were treated with 1–500 μM of compounds by dissolving in DMSO and serially diluting with media. TY-01 was used as the positive control. The final concentration of DMSO was 0.5% (v/v). After the 72 h drug incubation, […] stock MTT solution (5 mg/mL) was added, and the cells were incubated for another 3.5–4 h. The MTT solution containing media was carefully aspirated without displacing the purple crystals from the bottom, and […] acid-isopropanol was added to all wells and mixed slowly by shaking with an orbital shaker to dissolve the dark blue crystals. […] The determination of IC50 values was performed using GraphPad Prism 7 (GraphPad, San Diego, CA, USA). Each experiment was performed in triplicate and was repeated in three independent experiments.
With `CCCCCCCCCCCCS(=O)(=O)Nc1ccc(Br)cc1C(=O)C(=O)NCCC[N+](C)(C)C.[I-]` [Compound 17b, 3-(2-(5-Bromo-2-(dodecylsulfonamido)phenyl)-2-oxoacetamido)-N,N,N-trimethylpropan-1-aminium iodide], the “Therapeutic Index E. coli” value is reported as 0.57.

The data set is the same for the next values; noted with them: IC50 against MRC-5 cells divided by MIC against S. aureus.
Take `CCCCCCCCCCCCS(=O)(=O)Nc1ccc(Br)cc1C(=O)C(=O)NCCCNC(=N)N.Cl` [Compound 34b, 2-(5-Bromo-2-(dodecylsulfonamido)phenyl)-N-(3-guanidinopropyl)-2-oxoacetamide hydrochloride]: the “Therapeutic Index S. aureus” value was 1.05–3.40 and 1.32. Turning to `CCCCCCCCS(=O)(=O)Nc1ccc(-c2cccc(-c3ccccc3)c2)cc1C(=O)C(=O)NCCC[N+](C)(C)C.[I-]` [Compound 23, N,N,N-Trimethyl-3-(2-(4-(octylsulfonamido)-[1,1′:3′,1″-terphenyl]-3-yl)-2-oxoacetamido)propan-1-aminium iodide], the “Therapeutic Index S. aureus” value turned out to be 1.93. On the same count and under the same terms, the same measure for `CCCCCCCCS(=O)(=O)Nc1ccc(-c2cccc(-c3ccccc3)c2)cc1C(=O)C(=O)NCCCN(C)C.Cl` [Compound 22, N,N-Dimethyl-3-(2-(4-(octylsulfonamido)-[1,1′:3′,1″-terphenyl]-3-yl)-2-oxoacetamido)propan-1-aminium chloride]: 0.22; for `CCCCCCCCS(=O)(=O)Nc1ccc(-c2ccc(-c3ccccc3)cc2)cc1C(=O)C(=O)NCCCN(C)C` [Compound 10d, N-(3-(Dimethylamino)propyl)-2-(4-(octylsulfonamido)-[1,1′:4′,1″-terphenyl]-3-yl)-2-oxoacetamide]: 0.44. `CCCCCCCCS(=O)(=O)Nc1ccc(-c2ccc(-c3ccccc3)cc2)cc1C(=O)C(=O)NCCCNC(=N)N.Cl` [Compound 33d, N-(3-Guanidinopropyl)-2-(4-(octylsulfonamido)-[1,1′:4′,1″-terphenyl]-3-yl)-2-oxoacetamide hydrochloride]: the “Therapeutic Index S. aureus” value was 1.05–3.40 and 1.05. In the case of `CCCCCCCCS(=O)(=O)Nc1ccc(-c2ccc(-c3ccccc3)cc2)cc1C(=O)C(=O)NCCCN(C)C.Cl` [Compound 13d, N,N-Dimethyl-3-(2-(4-(octylsulfonamido)-[1,1′:4′,1″-terphenyl]-3-yl)-2-oxoacetamido)propan-1-aminium chloride], the “Therapeutic Index S. aureus” value is listed as 0.24. On to `CCCCCCCCCCCCS(=O)(=O)Nc1ccc(Br)cc1C(=O)C(=O)NCCC[N+](C)(C)C.[I-]` [Compound 17b, 3-(2-(5-Bromo-2-(dodecylsulfonamido)phenyl)-2-oxoacetamido)-N,N,N-trimethylpropan-1-aminium iodide], for which the “Therapeutic Index S. aureus” value was 2.29–7.18 and 2.29.
